Results on 1 substance are retold here after article PMC10837205 (2024).

The test concerns the target biotinylated soluble human LDLR (sohLDLR) (human) (UniProt P01130). The test is described as follows: BLI.

On to “monomeric Gc ectodomain of CCHFV YL16070 strain (domain or fragment)”, for which the Kd turned out to be 32.6 nM.
